Measured values from several laboratories, pooled; numbers as filed in NIAID ChemDB.

All rows: whole-cell or culture tests; organism: Mycobacterium avium; measure: MIC

Rows are shuffled and stem from different studies. An empty or dashed field is not shown.

compound | strain or isolate | read by | conditions | result
Cc1c(CN2CCSCC2)cc(-c2ccc(F)cc2)n1-c1ccc(F)cc1 | 103317 |  |  | 16 µg/mL
CCCCCCCCCCCN(CCCCCCCCCCC)C(=O)NC(CCC(=O)O)(CCC(=O)O)CCC(=O)O | VA14 |  |  | 18 µg/mL
O=C(Oc1cc(Cl)ccc1C(=O)Nc1cccc(Br)c1)c1ccccc1 | 330/88 | broth dilution | 21 d | 8 µM
CCCN(CCC)c1nc(C(N)=S)cnc1C(N)=O | 80/72 |  |  | >100 µg/mL
O=C(Oc1cc(Cl)ccc1C(=O)Nc1ccc(Br)cc1)c1ccccc1 | 330/88 | broth dilution | 21 d | 4 µM
CCCCCCCC(CCCCCCC)NC(=O)NC(CCC(=O)O)(CCC(=O)O)CCC(=O)O | VA14 |  |  | 54 µg/mL
Clc1ccc(-n2nnc(SCc3ccccc3)n2)cc1 | CNCTC MY330/88 |  |  | 62.5 µM
O=C(Oc1cc(Cl)ccc1C(=O)Nc1ccc(C(F)(F)F)cc1)c1ccccc1 | 330/88 | broth dilution | 21 d | 8 µM
C=C1CC[C@@H](O)[C@]2(C)CC[C@@H]3[C@H](OC(=O)[C@H]3C)[C@@H]12 |  |  |  | >128 µg/mL
C=C[C@](C)(O)CC[C@H]1C(=C)CC[C@H]2C(C)(C)[C@@H](OC(C)=O)CC[C@]12C |  |  |  | >100 µg/mL
C/C1=C\[C@H]2OC(=O)[C@@H](C)[C@@H]2CCC2(C)O[C@@H]2CC1 |  |  |  | 128 µg/mL
CCCCCCC(C)(CCCC)OC(=O)c1cnc(Cl)cn1 | 101 |  |  | >256 µg/mL
CCOC(=O)CSc1ccnc(C(N)=S)c1 | 330/88 |  |  | 250 µM
CCCCN(CCCC)c1nc(C(N)=S)cnc1C(N)=O | 80/72 |  |  | >100 µg/mL
CCCCCOc1ccc(NC(=O)OCCC[NH+]2CCCCC2)cc1 | MY330/88 |  |  | 32 µM
O=C(Nc1ccc(Cl)c(Cl)c1)c1ccccc1O | CNCTC MY330/88 |  |  | 31 µM
NC(=S)CSc1cc(C(N)=S)ccn1 | 330/88 |  |  | 125 µM
CCCCCCCCOc1ccc(NC(=O)OCCC[NH+]2CCCCC2)cc1 | MY330/88 |  |  | 16 µM
NC[C@H]1O[C@H](O[C@H]2[C@H](O)[C@@H](O[C@H]3O[C@H](CO)[C@@H](O)[C@H](N)[C@H]3O)[C@H](N)C[C@@H]2N)[C@H](O)[C@@H](O)[C@@H]1O | Strain #2 |  |  | 0.39 µg/mL
O=c1oc2cc(Cl)ccc2c(=O)n1-c1ccccc1 | CNCTC MY330/88 |  |  | 8 µM
CCOC(=O)c1c(NC(=O)c2c(F)c(F)c(F)c(F)c2F)sc2c1CCNC2 |  | turbidity |  | 200 µM
CN[C@@H]1[C@H](O[C@H]2[C@H](O[C@H]3[C@H](O)[C@@H](O)[C@H](N=C(N)N)[C@@H](O)[C@@H]3N=C(N)N)O[C@@H](C)[C@]2(O)C=O)O[C@@H](CO)[C@H](O)[C@H]1O | Strain #2 |  |  | 0.39 µg/mL
O=C(Oc1cc(Cl)ccc1C(=O)Nc1ccc(F)cc1)c1ccccc1 | 330/88 | broth dilution | 21 d | 8 µM
N#CCSc1cc(C#N)ccn1 | 330/88 |  |  | 125 µM
CC(=O)Nc1ccc(/C=N/NC(N)=S)cc1 | 3337 |  |  | 0.15 µg/mL
CCCCCCCCN(CCCCCCCC)C(=O)NC(CCC(=O)O)(CCC(=O)O)CCC(=O)O | VA14 |  |  | 36 µg/mL
Cc1c(CN2CCSCC2)cc(-c2ccc(F)cc2)n1-c1ccc(Cl)cc1 |  |  |  | >16 µg/mL
C=C[C@](C)(O)CC[C@H]1C(=C)CC[C@H]2C(C)(C)[C@@H](O)CC[C@]12C |  |  |  | >100 µg/mL
O=C(O)c1cnc(Cl)cn1 | 49601 |  |  | >1024 µg/mL
COc1ccc(CSc2nnn(-c3ccc(C)cc3)n2)cc1 | CNCTC MY330/88 |  |  | 32 µM
C/C=C/Nc1nc(C(N)=S)cnc1C(N)=O | 80/72 |  |  | 50 µg/mL
Cc1c(CN2CCSCC2)cc(-c2ccc(F)cc2)n1-c1ccc(Cl)cc1 | 103317 |  |  | >16 µg/mL
O=c1oc2ccc(F)cc2c(=O)n1-c1ccc(Br)cc1 | CNCTC MY330/88 |  |  | 16 µM
N/C(=N\N=C\c1ccccc1)SCc1ccccc1 | ATCC 25291 | broth dilution | 14 d | 32 µM
CCCCCCCCCCN(CCCCCCCCCC)C(=O)NC(CCC(=O)O)(CCC(=O)O)CCC(=O)O | VA14 |  |  | 18 µg/mL
O=c1oc2ccc(Cl)cc2c(=O)n1-c1ccc([N+](=O)[O-])cc1 | CNCTC MY330/88 |  |  | 8 µM
CCCCCCCCCN(CCCCCCCCC)C(=O)NC(CCC(=O)O)(CCC(=O)O)CCC(=O)O | VA14 |  |  | 13.5 µg/mL
CCCCCCOc1cccc(NC(=O)OCCN2CCCCC2)c1 | MY330/88 |  |  | 16 µM
Cc1ccc2c(=O)n(-c3cccc([N+](=O)[O-])c3)c(=O)oc2c1 | CNCTC MY330/88 |  |  | 16 µM
Cc1ccc(-n2nnc(SCc3ccc(F)cc3)n2)cc1 | CNCTC MY330/88 |  |  | 125 µM
O=C(Nc1cccc([N+](=O)[O-])c1)c1cc(Br)ccc1O | CNCTC MY330/88 |  |  | 31 µM
CCOc1ccc(NC(=O)OCCC[NH+]2CCCCC2)cc1 | MY330/88 |  |  | 1000 µM
O=c1oc2ccc(Cl)cc2c(=O)n1-c1ccccc1 | CNCTC MY330/88 |  |  | 32 µM
Cc1c(CN2CCSCC2)cc(-c2ccccc2F)n1-c1ccccc1 |  |  |  | >16 µg/mL
C=C(CO)[C@@H]1CC[C@@]2(C)[C@H](O)CC=C(C)[C@@H]2[C@H]1O |  |  |  | >128 µg/mL
COc1ccc(-n2nnc(SCc3ccc(C)cc3)n2)cc1 | CNCTC MY330/88 |  |  | 62.5 µM
Cc1c(CN2CCN(C)CC2)cc(-c2ccccc2Cl)n1-c1ccccc1 |  |  |  | >16 µg/mL
CCCCCCOc1ccc(NC(=O)OCCC[NH+]2CCCCC2)cc1 | MY330/88 |  |  | 32 µM
CCCCCCCCCCCCCCC(C(=O)O)c1ccccc1 |  |  |  | 3.3 µM
O=C(O)c1cnc(Cl)cn1 | 101 |  |  | 1024 µg/mL
N#CCCCSc1cc(C(=N)N)ccn1 | 330/88 |  |  | >1000 µM
CC(C(=O)O)c1ccccc1 |  |  |  | >100 µM
CCOc1ccc(NC(=O)OCC[NH+]2CCCC2)cc1 | MY330/88 |  |  | 1000 µM
O=C(Nc1cccc(F)c1)c1cc(Cl)ccc1O | 330/88 | broth dilution | 14 d | 31 µM
CCCCC(C/C(C)=C/CC[C@H](C)CCO)C(=O)O |  |  |  | 31.25 µM
CCCCCCCOc1ccc(NC(=O)OCCC[NH+]2CCCCC2)cc1 | MY330/88 |  |  | 16 µM
CCCCCCCCCCCC(C)C(=O)O |  |  |  | 250 µM
CCC1Cn2cc([N+](=O)[O-])nc2O1 | 3 isolates |  |  | >250 µg/mL
Cc1c(CN2CCN(C)CC2)cc(-c2cccc3ccccc23)n1-c1ccccc1 |  |  |  | >16 µg/mL
NC(=S)c1cc(N2CCCCC2)ccn1 | 330/88 |  |  | 250 µM
Cc1c(CN2CCSCC2)cc(-c2ccccc2Cl)n1-c1ccccc1Cl |  |  |  | 8 µg/mL
CCCCCCCCC(C(=O)O)c1ccccc1 |  |  |  | >100 µM
C=C1C(=O)O[C@@H]2/C=C(\C)CC[C@H]3OC3(C)CC[C@@H]12 |  |  |  | 128 µg/mL
N/C(=N\N=C\c1cc(Br)ccc1O)SCc1ccc(C(F)(F)F)cc1 | ATCC 25291 | broth dilution | 14 d | 32 µM
Clc1ccc(-n2nnc(SCc3ccccc3)n2)cc1Cl | CNCTC MY330/88 |  |  | 125 µM
N#Cc1cnc(C(N)=O)c(NC2CCCCCC2)n1 | 80/72 |  |  | >100 µg/mL
N/C(=N\N=C\c1ccccc1)SCc1ccc(Br)cc1 | ATCC 25291 | broth dilution | 21 d | 16 µM
O=c1oc2ccccc2c(=O)n1-c1ccc(Cl)cc1 | CNCTC MY330/88 |  |  | 62 µM
CC(C)CNc1nc(C(N)=S)cnc1C(N)=O | 80/72 |  |  | >100 µg/mL
CCCCCCCCCOc1ccccc1NC(=O)OCCN1CCOCC1 | MY330/88 |  |  | 32 µM
CC(C)(OC(=O)c1cnc(Cl)cn1)c1ccccc1 | 101 |  |  | 256 µg/mL
CCC(C(=O)O)c1ccccc1 |  |  |  | >100 µM
N#CCCSc1cc(C#N)ccn1 | 330/88 |  |  | 1000 µM
CCCCCCCCCCC(C(=O)O)c1ccccc1 |  |  |  | 20 µM
Cc1c(CN2CCN(C)CC2)cc(-c2ccccc2)n1-c1ccccc1Cl |  |  |  | >16 µg/mL
COc1ccc(CSc2nnn(-c3ccc(OC)cc3)n2)cc1 | CNCTC MY330/88 |  |  | 125 µM
N#Cc1ccnc(SCC(O)CO)c1 | 330/88 |  |  | 250 µM
O=C(Oc1cc(Cl)ccc1C(=O)Nc1cccc(Cl)c1)c1ccccc1 | 330/88 | broth dilution | 21 d | 8 µM
N/C(=N\N=C\c1cc(Cl)ccc1O)SCc1ccc(F)cc1 | ATCC 25291 | broth dilution | 14 d | 32 µM
CC[C@H]1OC(=O)[C@H](C)C(=O)[C@H](C)[C@@H](O[C@@H]2O[C@H](C)C[C@H](N(C)C)[C@H]2O)[C@](C)(OC)C[C@@H](C)C(=O)[C@H](C)[C@H]2N(CCCCn3cnc(-c4cccnc4)c3)C(=O)O[C@]12C | Isolate 969 |  |  | 2.5 µg/mL
CC(C)=CCC1=C(O)c2ccccc2C(=O)C1=O |  | resazurin |  | 32 µg/mL
C=C1CC[C@@H](O)[C@]2(C)CC[C@@H](C(C)CO)[C@H](O)[C@@H]12 |  |  |  | >128 µg/mL
Cc1c(CN2CCN(C)CC2)cc(-c2ccccc2)n1-c1cccc2ccccc12 |  |  |  | >16 µg/mL
C=CCN(CC=C)c1nc(C(N)=S)cnc1C(N)=O | 80/72 |  |  | >100 µg/mL
CCCCCCCCOc1ccccc1NC(=O)OCCN(C)C | MY330/88 |  |  | 8 µM
CCCCCCCC(OC(=O)c1cnc(Cl)cn1)C(C)(C)C | 101 |  |  | >256 µg/mL
C/C=C(/C)C(=O)O[C@@H]1C=C(C)CC[C@H]2[C@H](C)C(=O)O[C@@H]2/C=C(\C)C1 |  |  |  | >128 µg/mL
O=C(Nc1ccc(Br)cc1)c1ccccc1O | CNCTC MY330/88 |  |  | 31 µM
CC(C)C1=CC2=CC[C@@H]3C(C)(C)CCC[C@@]3(C)[C@@H]2CC1 |  |  |  | >100 µg/mL

The last 11 rows once more:

| compound | strain or isolate | read by | conditions | result |
|---|---|---|---|---|
| N/C(=N\N=C\c1cc(Cl)ccc1O)SCc1ccc(F)cc1 | ATCC 25291 | broth dilution | 14 d | 32 µM |
| CC[C@H]1OC(=O)[C@H](C)C(=O)[C@H](C)[C@@H](O[C@@H]2O[C@H](C)C[C@H](N(C)C)[C@H]2O)[C@](C)(OC)C[C@@H](C)C(=O)[C@H](C)[C@H]2N(CCCCn3cnc(-c4cccnc4)c3)C(=O)O[C@]12C | Isolate 969 |  |  | 2.5 µg/mL |
| CC(C)=CCC1=C(O)c2ccccc2C(=O)C1=O |  | resazurin |  | 32 µg/mL |
| C=C1CC[C@@H](O)[C@]2(C)CC[C@@H](C(C)CO)[C@H](O)[C@@H]12 |  |  |  | >128 µg/mL |
| Cc1c(CN2CCN(C)CC2)cc(-c2ccccc2)n1-c1cccc2ccccc12 |  |  |  | >16 µg/mL |
| C=CCN(CC=C)c1nc(C(N)=S)cnc1C(N)=O | 80/72 |  |  | >100 µg/mL |
| CCCCCCCCOc1ccccc1NC(=O)OCCN(C)C | MY330/88 |  |  | 8 µM |
| CCCCCCCC(OC(=O)c1cnc(Cl)cn1)C(C)(C)C | 101 |  |  | >256 µg/mL |
| C/C=C(/C)C(=O)O[C@@H]1C=C(C)CC[C@H]2[C@H](C)C(=O)O[C@@H]2/C=C(\C)C1 |  |  |  | >128 µg/mL |
| O=C(Nc1ccc(Br)cc1)c1ccccc1O | CNCTC MY330/88 |  |  | 31 µM |
| CC(C)C1=CC2=CC[C@@H]3C(C)(C)CCC[C@@]3(C)[C@@H]2CC1 |  |  |  | >100 µg/mL |